Measured values from several laboratories, pooled; numbers as filed in NIAID ChemDB.

Shared fields: whole-cell or culture tests; species: Candida albicans

ECn: concentration that inhibits the pathogen or its effect by n%.

CCCCOCn1c[n+](CNC(=O)c2cccnc2)c2ccccc21 ; strain: ATCC 10231 ; endpoint: MIC ; result: 1335 µM
CCCC(C)C(Cn1ccnc1)c1ccc(Cl)cc1Cl ; endpoint: MIC ; result: 10 µg/mL
CC(C)=CCN=C(N)NCCCCCCCN1CCCCCCCCN=C(N)NC1=O ; strain: 53T ; endpoint: MIC50 ; result: 20 µM
COc1ccc(-c2ccc(C(=O)N[C@H]3CCCNC(=O)C4C[C@H](N)CN4C(=O)C(C(C)O)NC(=O)C(CCc4ccc(O)cc4)NC(=O)C4C[C@@H](O)CN4C(=O)C(C(C)O)NC3=O)cc2)cc1 ; strain: ATCC CCH442 ; endpoint: MIC ; result: 6.25 µg/mL
CCCCCCCCC(Cn1ccnc1)c1ccc(F)cc1 ; endpoint: MIC ; result: 10 µg/mL
CCCCCCCCCSc1cc(C(N)=S)ccn1 ; strain: 3a ; endpoint: MFC ; result: 200 µg/mL
CCCCC(Cn1ccnc1)c1ccc(Cl)cc1Cl ; endpoint: MIC ; result: 10 µg/mL
CCCCCOc1ccc(-c2ccc(-c3ccc(C(=O)N[C@H]4CCCNC(=O)[C@@H]5C[C@H](N)CN5C(=O)[C@H](Cc5ccc(O)cc5)NC(=O)C(CCc5ccc(O)cc5)NC(=O)[C@@H]5C[C@@H](O)CN5C(=O)[C@H]([C@@H](C)O)NC4=O)cc3)cc2)cc1 ; strain: ATCC CCH442 ; endpoint: MIC ; result: 0.39 µg/mL
C#CCNC(N)=NCCCCCCCN1CCCCCCCCN=C(N)NC1=O ; strain: 15T ; endpoint: MIC50 ; result: 2.5 µM
C[C@@H](SC1COC(/C=C/C=C/c2ccc(C#N)cc2F)OC1)[C@](O)(Cn1cncn1)c1ccc(F)cc1F ; strain: 139 strains ; endpoint: MIC90 ; result: ≤0.008 µg/mL
COc1ccccc1/C=C1\COc2ccccc2C1=O ; endpoint: MIC ; result: 50 µg/mL
Nc1ncnc2c1ncn2[C@@H]1O[C@H](C(=O)O)[C@@H](NC(=O)C(N)CSCc2ccccc2Cl)[C@H]1O ; strain: FP633 ; endpoint: MIC ; result: 0.8 µg/mL
COc1ccccc1/C=C1\COc2ccc(-c3ccccc3)cc2C1=O ; endpoint: MIC ; result: 50 µg/mL
C[C@H](N)C(=O)NC(C(=O)O)n1cc(F)c(=O)[nH]c1=O ; strain: 3153A ; endpoint: MIC ; result: 25 µg/mL
CCCCCOc1ccc(-c2ccc(-c3ccc(C(=O)N[C@H]4CCCNC(=O)[C@H]5CCN5C(=O)C(C(C)O)NC(=O)C(CCc5ccc(O)cc5)NC(=O)C5C[C@@H](O)CN5C(=O)C(C(C)O)NC4=O)cc3)cc2)cc1 ; strain: ATCC 62376 ; endpoint: MIC ; result: >100 µg/mL
CCCCCCCCCOC[n+]1cccc(NCn2nnc3ccccc32)c1 ; strain: ATCC 10231 ; endpoint: MBC ; result: 599 µM
O=C(CCn1ccnc1)c1cccc(C(O)c2ccc(Cl)c(Cl)c2)c1 ; read by: broth dilution ; strain: RTCC 1003 ; endpoint: MIC ; result: 64 µg/mL
Nc1ncnc2c1ncn2[C@@H]1O[C@H](C(=O)O)[C@@H](NC(=O)[C@H](O)c2ccccc2)[C@H]1O ; strain: FP633 ; endpoint: MIC ; result: >100 µg/mL
COc1c(O)c2c(=O)cc(OC)c3c4c(OC)cc(=O)c5c(O)c(OC)c6c(c(c1CC(C)=C6OC(C)=O)c23)c54 ; endpoint: EC50 ; result: 5 µg/mL
Cc1ccc(-c2c3c(N)c4c(nc3nc3c2c(C)nn3-c2ccccc2)CCCC4)cc1 ; read by: broth dilution / absorbance ; strain: CCC 128 ; endpoint: MIC100 ; result: 31.2 µg/mL
COc1ccc2c(c1)C(=O)/C(=C/c1ccc3c(c1)CC3)CO2 ; endpoint: MIC ; result: 25 µg/mL
CC[C@@H]([C@H](C)O)n1ncn(-c2ccc(N3CCN(c4ccc(OC[C@@H]5CO[C@@](Cn6cncn6)(c6ccc(F)cc6F)C5)cc4)CC3)cc2)c1=O ; strain: 17 isolates fluconazole-susceptible ; endpoint: MIC90 ; result: 0.06 µg/mL
COc1ccc(CSCC(N)C(=O)N[C@H]2[C@@H](O)[C@H](n3cnc4c(N)ncnc43)O[C@@H]2C(=O)O)cc1 ; strain: FP633 ; endpoint: MIC ; result: 0.4 µg/mL
Clc1ccccc1C(c1ccccc1)(c1ccccc1)n1ccnc1 ; strain: 16 strains ; endpoint: MIC90 ; result: 2 µg/mL
COc1ccc(/C=C2\COc3ccc(SC)cc3C2=O)cc1 ; endpoint: MIC ; result: 25 µg/mL
CCCCCOc1ccc(-c2ccc(-c3ccc(C(=O)N[C@H]4CCCNC(=O)C5C[C@H](N)N5C(=O)C(C(C)O)NC(=O)C(CCc5ccc(O)cc5)NC(=O)C5C[C@@H](O)CN5C(=O)C(C(C)O)NC4=O)cc3)cc2)cc1 ; strain: ATCC CCH442 ; endpoint: MIC ; result: 0.2 µg/mL
CCCCCCCCCCCCOC[n+]1cccc(NCNc2ccc[n+](COCCCCCCCCCCCC)c2)c1 ; strain: ATCC 10231 ; endpoint: MIC ; result: 93 µM
C[C@H]1[C@H](O)[C@@H](C)/C=C/C=C/C=C/C=C/C=C/C=C/C=C/[C@H](O[C@@H]2O[C@H](C)[C@@H](O)[C@H](N)[C@@H]2O)C[C@@H]2O[C@](O)(C[C@@H](O)C[C@@H](O)CC[C@H](O)[C@@H](O)C[C@@H](O)CC(=O)O[C@H]1C)C[C@H](O)[C@H]2C(=O)O ; read by: broth dilution / absorbance ; strain: CCC 130 ; endpoint: MIC100 ; result: 0.5 µg/mL
COc1ccc(/C=C2\COc3ccccc3C2=O)cc1 ; endpoint: MIC ; result: 50 µg/mL
OC(CCn1ccnc1)c1ccc(-c2ccccc2)cc1 ; read by: broth dilution ; strain: RTCC 1003 ; endpoint: MIC ; result: >64 µg/mL
Cc1ccc(-c2c3c(N)c4c(nc3nc3c2c(C)nn3-c2ccccc2)CCC4)cc1 ; read by: broth dilution / absorbance ; strain: ATCC 10231 ; endpoint: MIC100 ; result: 125 µg/mL
Nc1ncnc2c1ncn2[C@@H]1O[C@H](C(=O)O)[C@@H](NC(=O)C(N)CCSc2ccccc2)[C@H]1O ; strain: FP633 ; endpoint: MIC ; result: 6.2 µg/mL
CCCCCOc1ccc(-c2ccc(-c3ccc(C(=O)N[C@H]4CCCNC(=O)C5C[C@H](N)CN5C(=O)C(Cc5cnc[nH]5)NC(=O)C(CCc5ccc(O)cc5)NC(=O)C5C[C@@H](O)CN5C(=O)C(C(C)O)NC4=O)cc3)cc2)cc1 ; strain: ATCC 10231 ; endpoint: MIC ; result: 0.78 µg/mL
CCCCCCCCCCCCCSc1cc(C(N)=S)ccn1 ; strain: 176 ; endpoint: MFC ; result: >200 µg/mL
CCCCCCCCCCOC[n+]1cccc(NCNc2ccc[n+](COCCCCCCCCCC)c2)c1 ; strain: ATCC 10231 ; endpoint: MIC ; result: 13 µM
CSc1cc(C(N)=S)ccn1 ; strain: 3a ; endpoint: MFC ; result: >200 µg/mL
CC(C)=CCCNC(N)=NCCCCCCCCCNCCCCCCCN=C(N)N ; strain: 53T ; endpoint: MIC50 ; result: 80 µM
Nc1ncnc2c1ncn2[C@@H]1O[C@H](C(=O)O)[C@@H](NC(=O)C(N)CSCc2ccncc2)[C@H]1O ; strain: FP633 ; endpoint: MIC ; result: 0.8 µg/mL
c1ccc(-c2ccc(C(c3ccccc3)n3ccnc3)cc2)cc1 ; strain: 16 strains ; endpoint: MIC50 ; result: 2 µg/mL
CCCCCCCCCOC[n+]1cccc(NCn2cnc3ccccc32)c1 ; strain: ATCC 10231 ; endpoint: MBC ; result: 1200 µM
CCCSc1cc(C(N)=S)ccn1 ; strain: 176 ; endpoint: MIC ; result: 100 µg/mL
O=C(CCn1ccnc1)c1ccc(Br)cc1 ; read by: broth dilution ; strain: RTCC1024 ; endpoint: MIC ; result: >64 µg/mL
COc1ccc(/C=C2\CSc3ccc(OC)cc3C2=O)cc1 ; endpoint: MIC ; result: 25 µg/mL
C[C@H](N)C(=O)N[C@@H](C(=O)O)n1cc(F)c(=O)[nH]c1=O ; strain: 3153A ; endpoint: MIC ; result: >100 µg/mL
CC(=O)Nc1nc(CSC[C@@H](N)C(=O)N[C@H]2[C@@H](O)[C@H](n3cnc4c(N)ncnc43)O[C@@H]2C(=O)O)ns1 ; strain: FP633 ; endpoint: MIC ; result: 25 µg/mL
N=C(N)N(CCCCCCCCCN=C(N)N)CCCCCCCN=C(N)N ; strain: ATCC 60193 ; endpoint: MIC50 ; result: 5 µM
CCCCCCCC(Cn1ccnc1)c1c(Cl)cccc1Cl ; endpoint: MIC ; result: 10 µg/mL
O=C(CCn1ccnc1)c1ccc2ccccc2c1 ; read by: broth dilution ; strain: RTCC1024 ; endpoint: MIC ; result: >64 µg/mL
CCC(C)n1ncn(-c2ccc(N3CCN(c4ccc(OC[C@H]5CO[C@](Cn6cncn6)(c6ccc(Cl)cc6Cl)O5)cc4)CC3)cc2)c1=O ; strain: 34 isolates ; endpoint: MIC50 ; result: 0.03 µg/mL
Cc1ccc(-c2c3c(N)c4c(nc3nc3c2c(C)nn3-c2ccccc2)CCCCC4)cc1 ; read by: broth dilution / absorbance ; strain: ATCC 10231 ; endpoint: MIC80 ; result: 62.5 µg/mL
CS(=O)C[C@@H](N)C(=O)N[C@H]1[C@@H](O)[C@H](n2cnc3c(N)ncnc32)O[C@@H]1C(=O)O ; strain: FP633 ; endpoint: MIC ; result: >100 µg/mL
C=C(C)CN=C(N)NCCCCCCCN1CCCCCCCCN=C(N)NC1=O ; strain: 15T ; endpoint: MIC50 ; result: 20 µM
COc1ccc(C[C@H](N)C(=O)N[C@H]2[C@@H](O)[C@H](n3cnc4c(N)ncnc43)O[C@@H]2C(=O)O)cc1 ; strain: FP633 ; endpoint: MIC ; result: 1.6 µg/mL
C=CCSS(=O)CC=C ; read by: broth dilution ; strain: Clinical Isolate 3109 ; endpoint: MIC90 ; result: 3.13 µg/mL

For reference, 3 entries again:

CCCCCOc1ccc(-c2ccc(-c3ccc(C(=O)N[C@H]4CCCNC(=O)[C@H]5CCN5C(=O)C(C(C)O)NC(=O)C(CCc5ccc(O)cc5)NC(=O)C5C[C@@H](O)CN5C(=O)C(C(C)O)NC4=O)cc3)cc2)cc1 ; strain: ATCC 62376 ; endpoint: MIC ; result: >100 µg/mL
CCCCCOc1ccc(-c2ccc(-c3ccc(C(=O)N[C@H]4CCCNC(=O)C5C[C@H](N)N5C(=O)C(C(C)O)NC(=O)C(CCc5ccc(O)cc5)NC(=O)C5C[C@@H](O)CN5C(=O)C(C(C)O)NC4=O)cc3)cc2)cc1 ; strain: ATCC CCH442 ; endpoint: MIC ; result: 0.2 µg/mL
CCCCCOc1ccc(-c2ccc(-c3ccc(C(=O)N[C@H]4CCCNC(=O)[C@@H]5C[C@H](N)CN5C(=O)[C@H](Cc5ccc(O)cc5)NC(=O)C(CCc5ccc(O)cc5)NC(=O)[C@@H]5C[C@@H](O)CN5C(=O)[C@H]([C@@H](C)O)NC4=O)cc3)cc2)cc1 ; strain: ATCC CCH442 ; endpoint: MIC ; result: 0.39 µg/mL

A number after MIC or MFC names an inhibition level or a share of isolates. Lines come from different laboratories, so protocols vary.